Laboratory results as given in patent US20220213176A1 (SHANGHAITECH UNIVERSITY, published 2022).

Key:
B.1.1.7 spike [1] = biological target: B.1.1.7 spike (SARS-CoV-2); assay: cell-based or functional assay
B.1.1.7 spike [2] = biological target: T1, B.1.1.7 spike (SARS-CoV-2); assay: […] NC (secondary only) MFI […] [cont'd) j]
T1 construct: also called spike of U.K. variant; authentic SARS-CoV-2 UK variant (B.1.1.7) virus

Binder | NT50, authentic B.1.1.7 virus neutralization (B.1.1.7 spike [1]) | MFI (B.1.1.7 spike [2])
S-D4 (antibody, V domains shown, also called S-D4 dimer; S-D4 IgG4) VH: QVQLQESGGGVVQPGRSLRLSCEVSGFTFSDYGMHWVRQAPGKGLEWVAVIWSEGSTEYYADSVKGRFTISRDNSKDTLYLQMNSLRAEDTAVYYCARPGYPTSTDRSPAAAGARQYYYYGMDVWGQGTTVTVSS VL: NFMLTQPHSVSESPGKTVTISCTRSGGSGAANYVQWYQQRPGSSPTTLIYEDSRRPPGVPDRFSGSVDTSSNSASLTISGLQTEDEADYYCQSYDSSNHVVFGGGTKLTVLG | 1.88 nM | –
S-E6 (antibody, V domains shown, also called S-E6 dimer; dimer S-E6) VH: QVTLRESGPGLVKPSETLSLTCAVSGGSLSSVNYYWSWIRQHPGKGLEWIGYIYYSGSTNYNPSLKSRVTMSLDTSKNQFSLKLSSVTAADTAVYYCATPGAIMGALHIWGQGTLVTVSS VL: QAVLTQPSSASSTPGQRVIISCSGSSSNIGSNTVSWYQQVPGAAPKLLIYFDYRRPSGVPDRFSGTRSGTSASLGISGLQSEDEADYYCAAWDDSLSAWVFGRGTKLTVLG | 1.15 nM | –
S-B8 (antibody, V domains shown, also called S-B8 dimer) VH: QVQLVQSGGGLIQPGGSLRLSCAASGFTVSLSHMNWVRQAPGKGLEWVSITYGDGNSDYADSVKGRFTISRDNSKNTLYLQMNSLRAEDTAVYYCAREYYYGMDVWGQGTTVTVSS VL: DIVMTQSPDSLAVSLGERATINCKSSQSVLYSSNNKNYLAWYQQKPGQPPKLLIYWASTRESGVPDRFSGSGSGTDFTLTISSLQAEDVAVYYCQQYYSLPLTFGGGTKLEIKR | – | 725000
